A mixed list of measured activities; the numbers were collected in NIAID ChemDB.

Shared fields: whole-cell or culture tests; organism: Vaccinia virus; measure: EC50

ECn is the concentration giving n% inhibition of infection, replication or growth. Blank or dashed fields: not listed here. Lines come from different laboratories, so protocols vary.

smiles,strain or isolate,cells,result
CO[C@H]1/C=C/O[C@@]2(C)Oc3c(C)c(O)c4c(O)c(c(/C=N/NC(=O)CN5CCN(c6ccc(C(F)(F)F)cc6)CC5)c(O)c4c3C2=O)NC(=O)/C(C)=C\C=C\[C@H](C)[C@H](O)[C@@H](C)[C@@H](O)[C@@H](C)[C@H](OC(C)=O)[C@@H]1C,,L929,>50 µg/mL
Nc1ncnc2c1ncn2[C@H]1COC[C@@H](CO)O1,,L1210,>30 µM
O=c1[nH]n2c(-c3cn(-c4ccccc4)nc3-c3ccccc3)nnc2s1,,HEL,>16 µg/mL
CO[C@H]1/C=C/O[C@@]2(C)Oc3c(C)c(O)c4c(O)c(c(/C=N/NC(=O)CN5CCN(c6ccc(Cl)cc6)CC5)c(O)c4c3C2=O)NC(=O)/C(C)=C\C=C\[C@H](C)[C@H](O)[C@@H](C)[C@@H](O)[C@@H](C)[C@H](OC(C)=O)[C@@H]1C,,L929,>50 µg/mL
Nc1ncnc2c1ncn2C(CF)CCCO,,ESM,>400 µg/mL
Nn1c(-c2cn(-c3ccccc3)nc2-c2ccccc2)n[nH]c1=S,,HEL,>80 µg/mL
CCc1cn([C@@H]2O[C@H](COP(=O)(O)O)[C@@H](O)[C@H]2O)c(=O)nc1N,,,>400 µg/mL
O=c1[nH]c(=O)n([C@H]2C[C@H](O)[C@@H](CO)O2)cc1Cl,,Primary rabbit kidney cells,0.76 µM
Cc1cccc(Cn2cnc(=N)c3[nH]cnc32)c1,,BSC-1,>50 µg/mL
CCCCc1cn([C@@H]2OC3COP(=O)(O)OC3[C@H]2O)c(=O)nc1N,,,>400 µg/mL
Nc1ncnc2c1ncn2COCCO,,PRK,20 µg/mL
O=C1CSc2nnc(-c3cn(-c4ccccc4)nc3-c3ccccc3)n2N1,,HEL,>16 µg/mL
Cc1ccccc1Cn1cnc(=N)c2[nH]cnc21,,BSC-1,>50 µg/mL
CCCCCCc1cn([C@@H]2O[C@H](COP(=O)(O)O)[C@@H](O)[C@H]2O)c(=O)nc1N,,,>400 µg/mL
Cc1cc(C)nc(NS(=O)(=O)c2ccc(N=C3C(=O)N(C(=O)c4ccccc4)c4ccccc43)cc2)n1,,HFF,230 µM
O=c1[nH]c(=O)n(COCCO)cc1/C=C/Br,,PRK,>400 µg/mL
CO[C@H]1/C=C/O[C@@]2(C)Oc3c(C)c(O)c4c(O)c(c(/C=N/NC(=O)CN5CCN(c6ccc(C(C)C)cc6)CC5)c(O)c4c3C2=O)NC(=O)/C(C)=C\C=C\[C@H](C)[C@H](O)[C@@H](C)[C@@H](O)[C@@H](C)[C@H](OC(C)=O)[C@@H]1C,,L929,>50 µg/mL
CC(=O)OCCOCn1cnc2c(Cl)ncnc21,,PRK,20 µg/mL
C[C@H](Cn1cnc2c(N)nc(N)nc21)OCP(=O)(O)O,,E6SM,>1200 µM
COc1ccc(N2CCN(CC(=O)N/N=C/c3c4c(O)c5c(O)c(C)c6c(c5c3O)C(=O)[C@@](C)(O/C=C/[C@H](OC)[C@@H](C)[C@@H](OC(C)=O)[C@H](C)[C@H](O)[C@H](C)[C@@H](O)[C@@H](C)/C=C/C=C(/C)C(=O)N4)O6)CC2)cc1,,L929,>50 µg/mL
N=c1ncn(CC2CCCCC2)c2nc[nH]c12,,BSC-1,>50 µg/mL
Nc1nc(Cl)c2ncn(COCCO)c2n1,,PRK,70 µg/mL
Cc1cc(C)nc(NS(=O)(=O)c2ccc(N=C3C(=O)N(CN4CCNCC4)c4ccccc43)cc2)n1,,HFF,>60 µM
CN(C)c1ncnc2c1ncn2COCCO,,PRK,>400 µg/mL
N=c1ncn(Cc2ccc(Cl)cc2Cl)c2nc[nH]c12,,BSC-1,>12 µg/mL
O=c1[nH]c(=O)n([C@H]2C[C@H](O)[C@@H](CO)O2)cc1F,,Primary rabbit kidney cells,0.4 µM
CCCc1cn([C@H]2C[C@H](O)[C@@H](COP(=O)(O)O)O2)c(=O)[nH]c1=O,,HSF,>797 µg/mL
N#CC1=CSc2nnc(-c3cn(-c4ccccc4)nc3-c3ccccc3)n2N=C1N,,HEL,>80 µg/mL
Nc1ncc2ncn(C[C@@H](CF)OCP(=O)(O)O)c2n1,,E6SM,>600 µM
CCCCCCc1cn([C@@H]2OC3COP(=O)(O)OC3[C@H]2O)c(=O)nc1N,,,>400 µg/mL
Nc1nc2c(ncn2C[C@H](CO)OCP(=O)(O)O)c(=O)[nH]1,,E6SM,30 µM
Nc1ccn(C(CF)CCCO)c(=O)n1,,ESM,>400 µg/mL
CO[C@H]1/C=C/O[C@@]2(C)Oc3c(C)c(O)c4c(O)c(c(/C=N/NC(=O)CN5CCN(c6ccc(C#N)cc6)CC5)c(O)c4c3C2=O)NC(=O)/C(C)=C\C=C\[C@H](C)[C@H](O)[C@@H](C)[C@@H](O)[C@@H](C)[C@H](OC(C)=O)[C@@H]1C,,L929,>50 µg/mL
O=S(=O)(O)c1c2ccccc2c(-c2c3nc(c(-c4c5ccccc5c(S(=O)(=O)O)c5ccccc45)c4ccc([nH]4)c(-c4c5ccccc5c(S(=O)(=O)O)c5ccccc45)c4nc(c(-c5c6ccccc6c(S(=O)(=O)O)c6ccccc56)c5ccc2[nH]5)C=C4)C=C3)c2ccccc12,WR,BSC-40,0.15 µg/mL
CO[C@H]1/C=C/O[C@@]2(C)Oc3c(C)c(O)c4c(O)c(c(/C=N/NC(=O)CN5CCN(c6ccc(Oc7ccccc7)cc6)CC5)c(O)c4c3C2=O)NC(=O)/C(C)=C\C=C\[C@H](C)[C@H](O)[C@@H](C)[C@@H](O)[C@@H](C)[C@H](OC(C)=O)[C@@H]1C,,L929,>50 µg/mL
Cc1cc(C)nc(NS(=O)(=O)c2ccc(N=C3C(=O)Nc4ccc(Br)cc43)cc2)n1,,HFF,>300 µM
CO[C@H]1/C=C/O[C@@]2(C)Oc3c(C)c(O)c4c(O)c(c(/C=N/NC(=O)CN5CCN(c6ccc([N+](=O)[O-])cc6)CC5)c(O)c4c3C2=O)NC(=O)/C(C)=C\C=C\[C@H](C)[C@H](O)[C@@H](C)[C@@H](O)[C@@H](C)[C@H](OC(C)=O)[C@@H]1C,,L929,>50 µg/mL
CCc1cn([C@H]2C[C@H](O)[C@@H](COP(=O)(O)O)O2)c(=O)[nH]c1=O,,HSF,2 µg/mL
CCCCCCCCc1cn([C@@H]2O[C@H](COP(=O)(O)O)[C@@H](O)[C@H]2O)c(=O)nc1N,,,>400 µg/mL
N#Cc1cn([C@H]2C[C@H](O)[C@@H](CO)O2)c(=O)[nH]c1=O,,Primary rabbit kidney cells,16 µM
Cc1cn(C(CF)CCCO)c(=O)[nH]c1=O,,ESM,>200 µg/mL

The last 3 rows once more:

smiles,strain or isolate,cells,result
CCCCCCCCc1cn([C@@H]2O[C@H](COP(=O)(O)O)[C@@H](O)[C@H]2O)c(=O)nc1N,,,>400 µg/mL
N#Cc1cn([C@H]2C[C@H](O)[C@@H](CO)O2)c(=O)[nH]c1=O,,Primary rabbit kidney cells,16 µM
Cc1cn(C(CF)CCCO)c(=O)[nH]c1=O,,ESM,>200 µg/mL